Pooled drug test results. Numbers come from NIAID ChemDB, via PubChem.

Shared fields: tests in culture; species: Mycobacterium tuberculosis

Inhibition is in % at the dose shown (toxicity tests: loss of growth or viability). ECn: concentration that inhibits the pathogen or its effect by n%. An empty or dashed field is not shown. Two numbers with a dash give a range or band. MIC bound: limit read from a one-dose screen. Rows are shuffled and stem from different studies. A number after MIC or MFC names an inhibition level or a share of isolates.

compound | strain | read by | read-out | cells | dose | mutations | conditions | result
CC(C)Cn1c(=O)c2c3c(cnc2n(CC(C)C)c1=O)C(=O)C1=C(C3=O)C2CCC1C2 | H37Rv | luminescence | EC90 |  |  | pSMT1 luciferase reporter plasmid |  | 5.3 µg/mL
O=[N+]([O-])c1ccc2nc(/C=C(\O)c3ccccc3)c(/C=C(\O)c3ccccc3)nc2c1 |  |  | inhibition |  | 6.25 µg/mL |  |  | 7%
CCCCC/C(CC1NC(=S)NC1=O)=N\NC(=O)c1ccncc1 |  | visual reading / absorbance | MIC |  |  | inhA 15C to T |  | 6.3 µM
O=C(Oc1ccc(Cl)cc1C(=O)Nc1cccc(C(F)(F)F)c1)c1cnccn1 | multidrug resistant 234/2005 |  | MIC |  |  |  | 14 d | 1 µM
C=C(C)C1CC=C(C)/C(=N/NC(=O)c2cccnc2)C1 | H37Rv | visual reading / absorbance | MIC |  |  | KatG *741R |  | 50 µM
COc1c(O)cc2oc3cc(O)c(CC=C(C)C)c(O)c3c(=O)c2c1CC=C(C)C | H37Rv | BACTEC | inhibition |  | 12.5 µg/mL |  |  | 100%
Cc1ccc2nc(SCC(=O)N/N=C/c3ccc([N+](=O)[O-])cc3)n(-c3ccccc3)c(=O)c2c1 | H37Rv |  | MIC |  |  |  |  | >6.25 µg/mL
NC[C@@H]1O[C@H](O[C@H]2[C@@H](O)[C@H](O[C@@H]3[C@@H](O)[C@H](N)C[C@H](N)[C@H]3O[C@H]3O[C@H](CO)[C@@H](O)C[C@H]3N)O[C@@H]2CO)[C@H](N)[C@@H](O)[C@@H]1O[C@H]1O[C@H](CO)[C@@H](O)[C@H](O)[C@@H]1O | H37Rv (ethambutol-resistant) |  | EC50 |  |  |  |  | 25–50 µg/mL
CC(C)=CCCC(C)CCC1(C)SC(=O)C(C)=C1O | H37Rv |  | MIC90 |  |  |  |  | 56 µM
CO[C@H]1/C=C/O[C@@]2(C)Oc3c(C)c(O)c4c(O)c(c(/C=N/N5CCN(C6CCCC6)CC5)c(O)c4c3C2=O)NC(=O)/C(C)=C\C=C\[C@H](C)[C@H](O)[C@@H](C)[C@@H](O)[C@@H](C)[C@H](OC(C)=O)[C@@H]1C | L189 |  | MIC |  |  |  |  | 0.1 µg/mL
c1ccc(-c2nc(Nc3cc(C4CC4)[nH]n3)cc(OCCN3CCCC3)n2)cc1 | H37Rv |  | MIC99 |  |  |  |  | 20 µM
O=C(Oc1cc(Cl)ccc1C(=O)Nc1cccc(F)c1)c1cnccn1 | H37Rv 331/88 |  | MIC |  |  |  | 14 d | 2 µM
NNC(=O)c1ccncc1 | H37Rv | visual reading / absorbance | MIC |  |  |  |  | 0.1 µM
CN1CCN(c2n[nH]c(=O)c3c2nnn3Cc2ccccc2)CC1 | H37Rv | resazurin | MIC bound |  |  |  |  | >6.25 µg/mL
C=C/C(C)=C/[C@@]1(C)SC(=O)C(C)=C1O | H37Rv |  | MIC90 |  |  |  |  | 125 µM
CCCn1c(=O)c2c3c(cnc2n(CCC)c1=O)C(=O)C1=C(C3=O)C2CCC1C2 | H37Rv | luminescence | EC90 |  |  | pSMT1 luciferase reporter plasmid |  | 4.28 µg/mL
CC1SC(=O)C(C)(C)C1=O | H37Rv |  | MIC |  |  |  |  | 240 µM
Nc1c(/C=C/c2cc3cc(C4=NCCN4)ccc3o2)[nH]c2cc(C3=NCCN3)ccc12 | H37Rv | BACTEC | MIC bound |  |  |  |  | >12.5 µg/mL
CCOC(=O)/C(C#N)=N/Nc1ccc(C(=O)OC)c(S(=O)(=O)NC(=O)Nc2nccc(OC)n2)c1 | H37Rv |  | MIC |  |  |  |  | >80 µg/mL
C/C=C1\CN2CCC1CC2C(O)c1ccnc2ccc(OCC(O)CO)cc12 | H37Rv | resazurin | MIC bound |  |  |  |  | >6.25 µg/mL
O=C(/C=C1\N[C@@H]2CCCC[C@H]2N\C1=C/C(=O)c1ccccc1)c1ccccc1 |  |  | inhibition |  | 6.25 µg/mL |  |  | 0%
CC1=NN(C(=O)c2cccnc2)C(=O)C1N=Nc1ccc(S(=O)(=O)Nc2ccccn2)cc1 | H37Rv | BACTEC | MIC |  |  |  |  | ≥12.8 µg/mL
CCOc1ccc(NC(=S)Nc2ccc(OCC(C)C)cc2)cc1 | Ravenel #226 |  | MIC |  |  |  |  | 3.9 µg/mL
CCCCCCCCCCCCCCCCNc1ccc(C(=O)C2CC2c2ccc(Cl)cc2)cc1 | H37Rv | broth dilution / agar | MIC |  |  |  |  | >12.5 µg/mL
O=C(/C=C1\N[C@H]2CCCC[C@H]2N\C1=C/C(=O)c1ccccc1)c1ccccc1 |  |  | MIC |  |  |  |  | >6.25 µg/mL
CC(C)n1c(=O)c2c3c(cnc2n(C(C)C)c1=O)C(=O)C1=C(C3=O)C2CCC1CC2 | H37Rv | luminescence | EC99 |  |  | pSMT1 luciferase reporter plasmid |  | 4.89 µg/mL
c1cnc2c(c1)ccc1cccnc12 | H37Rv | BACTEC | MIC | VERO |  |  |  | 6.25 µg/mL
CC(C)=CCC1(C)SC(=O)C(C)=C1O | H37Rv |  | MIC50 |  |  |  |  | >300 µM
CCCCCn1c(=O)c2c3c(cnc2n(CCCCC)c1=O)C(=O)C1=C(C3=O)C2CCC1CC2 | H37Rv | luminescence | EC99 |  |  | pSMT1 luciferase reporter plasmid |  | 13.37 µg/mL
O=[N+]([O-])c1cc2cccnc2c2ncccc12 | H37Rv | BACTEC | MIC |  |  |  |  | 0.8 µg/mL
COc1ccc(OC)c(/C=N/NC(=O)CSc2nc3ccc(C)cc3c(=O)n2-c2ccccc2)c1 | H37Rv |  | MIC |  |  |  |  | >6.25 µg/mL
CC1(C)Nc2ccc(Cl)cc2C(=S)N1c1cccc(Cl)c1 | My 331/88 |  | MIC |  |  |  |  | 62.5 µg/mL
CN(C)[C@@H]1CCN(c2cc(Nc3cc(C(=O)NC4CC4)ccn3)nc(-c3ccccc3)n2)C1 | H37Rv | resazurin | MIC90 |  |  |  |  | 64 µM
CCCCCCCCCCC[C@H](CC(=O)[C@@H](CC(C)C)NC=O)CC1OC(=O)[C@H]1CCCCCC |  |  | MIC99 |  |  |  |  | 20 µg/mL
O=C(NN1C(=O)CS(=O)(=O)C1c1ccc(C(F)(F)F)cc1)c1ccncc1 |  | visual reading / absorbance | MIC |  |  | KatG S315R |  | 50 µM
CCOC(=O)/C(C#N)=C\c1ccc(N(CCC(=O)O)CCC(=O)O)c(I)c1 | H37Rv | BACTEC | inhibition |  | 12.5 µg/mL |  |  | 16%
CCc1nc2cc(C)c(C)cn2c1C(=O)NCc1ccc(N2CCN(S(=O)(=O)C(F)(F)F)C=N2)c(F)c1 |  | GFP | EC50 |  |  |  |  | 0.0057 µM
COc1c2c(cc3c1c(=O)c1ccccc1n3C)OCO2 | H37Rv | BACTEC | MIC |  |  |  |  | ≥12.5 µg/mL
O=C(c1ccc(N2CCN(c3cccc(Cl)c3Cl)CC2)cc1)C1CC1c1ccc(Cl)cc1 | H37Rv | broth dilution / agar | MIC |  |  |  |  | >12.5 µg/mL
CN[C@@H]1[C@H](O[C@H]2[C@H](O[C@H]3[C@H](O)[C@@H](O)[C@H](N=C(N)N)[C@@H](O)[C@@H]3N=C(N)N)O[C@@H](C)[C@]2(O)C=O)O[C@@H](CO)[C@H](O)[C@H]1O | TN718 (AY) |  | MIC |  |  |  |  | >2 µg/mL
COc1ccc(-c2coc3c4c(c5c(c3c2=O)OC(C)(C)CC5)OC(C)(C)C=C4)cc1OC | H37Rv | BACTEC | inhibition |  | 128 µg/mL |  |  | 82%
CC(=O)NC[C@H]1CN(c2ccc(N3CCOCC3)c(F)c2)C(=O)O1 | 117 strains |  | MIC50 |  |  |  |  | 0.5 µg/mL
CCCCOc1ccc(NC(=S)Nc2ccc(OCCN(CC)CC)cc2)cc1 | H37RV #302 |  | MIC |  |  |  |  | 62.5 µg/mL
CCCCNc1ccc(C(=O)C2CC2c2ccc(Cl)cc2)cc1 | H37Rv | broth dilution / agar | MIC |  |  |  |  | >12.5 µg/mL
COC(=O)c1ccc(Cl)cc1S(=O)(=O)NC(=O)Nc1nccc(C)n1 | H37Rv |  | MIC |  |  |  |  | 40 µg/mL
CCc1cc(C(N)=S)ccn1 | H37Rv |  | MIC |  |  |  |  | ~10 µg/mL
CCN(CC)CCN1C(=O)C(=O)N(c2cccc3ccccc23)C1=O.Cl | H37Rv | BACTEC | inhibition |  | 12.5 µg/mL |  |  | 0%
CC1(C)Nc2ccccc2C(=S)N1c1ccc(Cl)c(Cl)c1 | My 331/88 |  | MIC |  |  |  |  | >62.5 µg/mL
COC1=NN(c2ccc(CNC(=O)c3c(C(F)F)nc4ncc(Cl)cn34)cc2F)CCN1S(=O)(=O)C(F)(F)F |  | GFP | EC50 |  |  |  |  | 0.0024 µM
c1ccc2c(c1)nc1cc(NC3CCCCC3)c(=NC3CCCCC3)cc-1n2C1CCCCC1 | PAS-R |  | MIC |  |  |  |  | 3.1 µg/mL
CN(C)c1ccc(C(=O)C2CC2c2ccc(Cl)cc2)cc1 | H37Rv | broth dilution / agar | MIC |  |  |  |  | >12.5 µg/mL
O=C(Oc1cc(Cl)ccc1C(=O)Nc1ccc(C(F)(F)F)cc1)c1cnccn1 | multidrug resistant Praha 1 |  | MIC |  |  |  | 14 d | 0.125 µM
CCc1nc2ccc(Cl)cn2c1C(=O)NCc1ccc(N2CCN(c3nccs3)C=N2)cc1 |  | GFP | EC50 |  |  |  |  | 0.013 µM
CCN1C(=O)C(N2CCCCC2)S/C1=C\C(=O)O | H37Rv | BACTEC | MIC |  |  |  |  | ≥12.8 µg/mL
Cc1ccc2nc(SCC(=O)N/N=C/c3ccc(C(F)(F)F)cc3)n(-c3ccccc3)c(=O)c2c1 | H37Rv |  | MIC |  |  |  |  | >6.25 µg/mL
O=C(N/N=C(\c1nc2ccc([N+](=O)[O-])cc2[nH]c1=O)C(O)c1ccc([N+](=O)[O-])cc1)c1ccncc1 | H37Rv | visual reading / absorbance | MIC |  |  | KatG *741R |  | 50 µM
CCc1nc2c(C)cc(Cl)cn2c1C(=O)NCc1ccc(N2CCN(S(=O)(=O)C(F)(F)F)C=N2)c(F)c1 |  | GFP | EC50 |  |  |  |  | 0.95 µM
O=C(Oc1cc(Cl)ccc1C(=O)Nc1ccc(F)cc1)c1cnccn1 | H37Rv 331/88 |  | MIC |  |  |  | 14 d | 2 µM
CCCCCCCCCCCCNc1ccc(C(=O)C2CC2c2ccc(Cl)cc2)cc1 | H37Rv | broth dilution / agar | MIC |  |  |  |  | >12.5 µg/mL
CCc1nc2cc(Cl)c(C)cn2c1C(=O)NCc1ccc(N2CCN(S(=O)(=O)C(F)(F)F)C=N2)c(F)c1 |  | GFP | EC50 |  |  |  |  | 0.0055 µM
O=C1C(Cl)=C(Nc2ccc3c(c2NC2=C(Cl)C(=O)c4ccccc4C2=O)C(=O)c2ccccc2C3=O)C(=O)c2ccccc21 | H37Rv | BACTEC | MIC bound |  |  |  |  | ≤12.5 µg/mL
CCN(CC)CCOc1cc(Nc2cc(C3CC3)[nH]n2)nc(-c2ccccc2)n1 | H37Rv |  | MIC99 |  |  |  |  | 5 µM
CC1CC(=O)c2c(ccc3c2C(=O)c2cccc(O)c2C3=O)C1 | H37Ra | GFP | EC50 |  |  |  |  | 40.8 µM
NNC(=O)c1ccncc1 | H37RV #80 |  | MIC |  |  |  |  | <0.5 µg/mL
CCOC(=O)c1cn(CC)c2cc(-n3cccc3)c(F)cc2c1=O | H37Rv | resazurin | inhibition |  | 6.25 µg/mL |  |  | 55%
CCc1nc2ccc(F)cn2c1C(=O)NCc1ccc(N2CCN(S(=O)(=O)C(F)(F)F)C(C3CC3)=N2)cc1 |  | GFP | EC50 |  |  |  |  | 0.011 µM
CCC/C=C/C=C/[C@@H]1C[C@@H](O)[C@@H](O)C(=O)[C@H]1CO | H37Rv | BACTEC | MIC bound |  |  |  |  | >12.5 µg/mL
CC(C)(CNC(=O)C1CCC1)CNc1nc(Nc2cccc(CN3CCCC3)c2)ncc1Br | H37Rv | resazurin | MIC90 |  |  |  |  | 64 µM
CC(=O)OCCn1c2ccccc2nc2cc3c(cc21)c(Cl)c(=O)c1ccccc13 | H37Rv | BACTEC | MIC bound |  |  |  |  | ≤12.5 µg/mL
CC[C@H]1OC(=O)[C@H](C)[C@@H](O[C@H]2C[C@@](C)(OC)[C@@H](O)[C@H](C)O2)[C@H](C)[C@@H](O[C@@H]2O[C@H](C)C[C@H](N(C)C)[C@H]2O)[C@](C)(OC)C[C@@H](C)C(=O)[C@H](C)[C@@H](O)[C@]1(C)O | 9135 |  | MIC |  |  |  |  | >4 µg/mL
CCc1nc2ncc(F)cn2c1C(=O)NCc1ccc(N2CCN(S(=O)(=O)C(F)(F)F)C(OC)=N2)c(F)c1 |  | GFP | EC50 |  |  |  |  | 0.0045 µM
CC12C(=O)N(c3nccs3)C(=O)C1(C)C1CCC2O1 | H37Rv | BACTEC | inhibition |  | 12.5 µg/mL |  |  | -6%
CCNC(=O)c1ccc(Br)c(S(=O)(=O)NC(=O)Nc2nccc(OC)n2)c1 | H37Rv |  | MIC |  |  |  |  | >80 µg/mL
Nc1nc(N)c(N=Nc2ccc([As](=O)(O)O)c(O)c2)c(N)n1 | H37Rv | BACTEC | MIC bound |  |  |  |  | >12.5 µg/mL
O=C(Oc1ccc(Cl)cc1C(=O)Nc1ccc(C(F)(F)F)cc1)c1cnccn1 | multidrug resistant 53/2009 |  | MIC |  |  |  | 14 d | 0.125 µM
NC(=O)C(=O)N/N=C(\CC1(O)C(=O)Nc2ccccc21)c1ccc2ccccc2c1 | H37Rv | BACTEC | inhibition |  | 12.5 µg/mL |  |  | 44%
CCCCCCCn1c(=O)c2c3c(cnc2n(CCCCCCC)c1=O)C(=O)C1=C(C3=O)C2CCC1C2 | H37Rv | luminescence | EC99 |  |  | pSMT1 luciferase reporter plasmid |  | 5.57 µg/mL